Reference: paper PMC8306566 (Marine Drugs, 2021)

Protein sequences, listed by entry. Tags and fused reporters are not part of them. Lines headed by an entry give the natural chain unless they say otherwise; changes in a name come on top. Residues count along the entry.
UniProt P02716, 25-520 limits assumed: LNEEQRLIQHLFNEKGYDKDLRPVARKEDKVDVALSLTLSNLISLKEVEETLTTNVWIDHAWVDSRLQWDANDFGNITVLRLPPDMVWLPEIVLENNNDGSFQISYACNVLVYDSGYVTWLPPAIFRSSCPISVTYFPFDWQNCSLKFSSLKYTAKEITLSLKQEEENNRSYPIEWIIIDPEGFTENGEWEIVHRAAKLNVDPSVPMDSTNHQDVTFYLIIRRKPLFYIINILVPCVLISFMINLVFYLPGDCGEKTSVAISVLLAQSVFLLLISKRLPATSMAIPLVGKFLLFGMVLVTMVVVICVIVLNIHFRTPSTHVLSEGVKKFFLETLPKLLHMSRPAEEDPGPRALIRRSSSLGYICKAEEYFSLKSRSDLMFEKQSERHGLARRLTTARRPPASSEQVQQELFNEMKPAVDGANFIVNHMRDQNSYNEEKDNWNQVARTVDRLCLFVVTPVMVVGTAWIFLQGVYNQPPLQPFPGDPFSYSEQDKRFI
UniProt P09690, 24-501 partner limits assumed: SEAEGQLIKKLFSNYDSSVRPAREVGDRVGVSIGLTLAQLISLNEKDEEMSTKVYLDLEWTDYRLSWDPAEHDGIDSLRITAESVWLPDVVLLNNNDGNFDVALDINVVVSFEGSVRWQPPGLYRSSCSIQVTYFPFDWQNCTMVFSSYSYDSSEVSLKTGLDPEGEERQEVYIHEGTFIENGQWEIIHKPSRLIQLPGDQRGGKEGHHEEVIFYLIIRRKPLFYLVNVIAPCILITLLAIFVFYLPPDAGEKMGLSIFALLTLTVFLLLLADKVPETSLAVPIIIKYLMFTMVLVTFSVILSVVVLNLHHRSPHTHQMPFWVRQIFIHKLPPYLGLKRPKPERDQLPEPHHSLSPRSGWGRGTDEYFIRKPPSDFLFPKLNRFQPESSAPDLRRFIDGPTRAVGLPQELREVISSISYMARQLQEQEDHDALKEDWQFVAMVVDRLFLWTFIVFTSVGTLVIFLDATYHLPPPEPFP
UniProt P20782, 21-493 limits assumed: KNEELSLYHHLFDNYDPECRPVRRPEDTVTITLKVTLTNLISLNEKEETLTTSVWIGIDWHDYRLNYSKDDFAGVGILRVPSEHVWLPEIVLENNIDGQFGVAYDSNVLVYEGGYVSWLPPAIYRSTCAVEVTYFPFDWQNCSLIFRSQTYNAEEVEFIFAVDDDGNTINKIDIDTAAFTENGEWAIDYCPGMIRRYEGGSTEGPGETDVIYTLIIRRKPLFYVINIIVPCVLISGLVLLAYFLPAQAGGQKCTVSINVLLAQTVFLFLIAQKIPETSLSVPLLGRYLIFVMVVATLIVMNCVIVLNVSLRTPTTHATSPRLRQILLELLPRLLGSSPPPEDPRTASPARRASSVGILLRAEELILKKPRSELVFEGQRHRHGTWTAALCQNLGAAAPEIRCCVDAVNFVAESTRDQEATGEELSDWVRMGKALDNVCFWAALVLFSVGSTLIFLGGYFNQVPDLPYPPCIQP

Target: mα1β1δε nAChR (Mus musculus, UniProt P02716+P04756+P09690+P20782)
Assay: Two-electrode voltage clamp, ACh-evoked current block, mα1β1δε nAChR in Xenopus oocytes

**Q.** CC[C@H](C)[C@@H]1NC(=O)[C@H](CC(=O)O)NC(=O)[C@H](CCC(N)=O)NC(=O)[C@H](CC(N)=O)NC(=O)[C@H](CC(N)=O)NC(=O)CNC(=O)[C@H](C)NC(=O)[C@@H]2CSSC[C@H](NC(=O)CN)C(=O)N[C@@H](CSSC[C@@H](C(N)=O)NC1=O)C(=O)N[C@@H](CO)C(=O)N[C@@H](Cc1c[nH]cn1)C(=O)N1CCC[C@H]1C(=O)N[C@@H](C)C(=O)N2 [LvIF] was tested. Which “inhibition at 10 μM” value (Mα1β1δε, 10 μM, 5 min, n = 3) did it give?
**A.** The value was 8.7 ± 3.8%.

**Q.** What about the IC50 (mα1β1δε, 10 μM ACh, 5 min incubation, less than 50% blocking at 10 μM) of the same molecule?
**A.** The IC50 was > 10 µM.
